Compound potency records, mixed from different reports. Data source: NIAID ChemDB in PubChem.

Shared fields: tests in culture; agent: Mycobacterium tuberculosis

An empty or dashed field is not shown.

compound	changes	setting	dose	measure	strain or isolate	method	value
O=C(O)c1ccc(-c2c3ccc(=O)cc-3oc3cc(O)ccc23)cc1				MIC bound	H37Rv	BACTEC	>12.5 µg/mL
COc1ccc(CCNC(=O)c2nc([N+](=O)[O-])cn2C)cc1				MIC90	H37Rv		>200 µg/mL
CC(=O)NNC(=O)c1ccccc1				MIC			>200 µg/mL
CC(C)[C@H](NC(=O)OCc1ccccc1)c1cnc(-c2ccccc2)[nH]1		14 d		MIC	My 331/88		16 µM
CCCCCCCCCN1C(=O)CC(C)(SCC(N)C(=O)O)C1=O				MIC	H37Ra		≤20 µg/mL
O=C(O)c1ccc(N2C(=O)C(C(=O)C(F)(F)F)C(=O)N(c3ccc(S(=O)(=O)Nc4ncccn4)cc3)C2=S)cc1O			12.5 µg/mL	inhibition	H37Rv	resazurin	95%
CC(=O)NNc1nc(C)c(C(=O)NNC(=O)C(=O)Nc2ccccc2C#N)s1			12.5 µg/mL	inhibition	H37Rv	BACTEC	19%
NC[C@H]1O[C@H](O[C@H]2[C@H](O)[C@@H](O[C@H]3O[C@H](CO)[C@@H](O)[C@H](N)[C@H]3O)[C@H](N)C[C@@H]2N)[C@H](O)[C@@H](O)[C@@H]1O				MIC			20 µg/mL
O=C(NCc1ccccc1Cl)c1ccc([N+](=O)[O-])s1				MIC90	H37Rv		25 µg/mL
O=C(O)C1OC(Oc2ccc3oc4ccccc4c(=O)c3c2)C(O)C(O)C1O			12.5 µg/mL	inhibition	H37Rv	BACTEC	-30%
CO[C@H]1/C=C/O[C@@]2(C)Oc3c(C)c(O)c4c(O)c(cc(OCC(=O)N(C)C5CCCC5)c4c3C2=O)NC(=O)/C(C)=C\C=C\[C@H](C)[C@H](O)[C@@H](C)[C@@H](O)[C@@H](C)[C@H](OC(C)=O)[C@@H]1C				MIC	H37Rv		0.09 µg/mL
Cc1ccc(S(=O)(=O)NNc2ccccc2)cc1				MIC			>200 µg/mL
CCCCN(CCCC)N(CCC)C(=O)COc1cc2c(O)c3c(O)c(C)c4c(c13)C(=O)[C@@](C)(O/C=C/[C@H](OC)[C@@H](C)[C@@H](OC(C)=O)[C@H](C)[C@H](O)[C@H](C)[C@@H](O)[C@@H](C)/C=C/C=C(/C)C(=O)N2)O4				MIC	H37Rv		0.09 µg/mL
CCOc1ccc2ccccc2c1C(=O)N[C@@H]1C(=O)N2[C@@H]1SC(C)(C)[C@@H]2C(=O)O				MIC	Isolate 3		>16 µg/mL
Cc1c(C(F)(F)F)cc2nc(C(=O)N3CCCCC3)sc2c1[N+](=O)[O-]				MBC	H37Rv	resazurin / absorbance	1 µg/mL
C[C@@H]([C@H](NC(=O)[C@H](Cc1ccc2ccccc2c1)NC(=O)N[C@@H](Cc1c[nH]c2ccccc12)C(=O)OCc1ccccc1)C(=O)NC[C@H]1C[C@@H](O)[C@H](n2ccc(=O)[nH]c2=O)O1)N(C)C(=O)CN				MIC50	H37Rv	resazurin / fluorescence	0.015 µM
COc1ccc(CNC(=O)c2cc([N+](=O)[O-])cn2C)cc1OC				MIC90	H37Rv		>200 µg/mL
CCCCCCNC(=O)[C@H](Cc1c[nH]c2ccccc12)NC(=O)N[C@@H](Cc1ccc2ccccc2c1)C(=O)N[C@H](C(=O)NC[C@H]1C[C@@H](O)[C@H](n2ccc(=O)[nH]c2=O)O1)[C@H](C)N(C)C(=O)CN				MIC50	H37Rv	resazurin / fluorescence	0.229 µM
CCOC(=O)/C=C1/SC(C)(C)[C@H]1NC(=O)OCc1ccccc1				MIC bound	H37Rv	resazurin	>6.25 µg/mL
O=C1C=CC(=O)N1c1ccc(N2CCCCC2)cc1				MIC	Clinical isolate (isoniazid-resistant)		≤20 µg/mL
O=C1OCC2OC(=O)c3cc(O)c(O)c(O)c3-c3c(O)c(O)c(O)c4c3C(=O)OC(C2OC(=O)c2cc(O)c(O)c(O)c2-c2c1cc(O)c(O)c2O)C1OC(=O)c2c-4c(O)c(O)c(O)c2[C@@H]1O			12.5 µg/mL	inhibition	H37Rv	BACTEC	17%
O=C(OCc1ccccc1)N1CCC[C@H]1c1cnc(-c2ccc([N+](=O)[O-])cc2)[nH]1		14 d		MIC	My 331/88		32 µM
O=C(O)c1ccc(NC(=O)C(F)(F)F)cc1O			12.5 µg/mL	inhibition	H37Rv	resazurin	92%
Cc1c(C(F)(F)F)cc2ncsc2c1[N+](=O)[O-]				MIC80	H37Rv	resazurin / absorbance	>16 µg/mL
O=C(NN=C1CCCCC1)c1ccccc1Cl				MIC			10 µg/mL
O=C(N[C@@H](Cc1ccccc1)c1cnc(-c2ccc([N+](=O)[O-])cc2)[nH]1)OCc1ccccc1		21 d		MIC	My 331/88		16 µM
CC(=O)NCC1CN(c2ccc(C(C)=O)cc2)C(=O)O1				MIC	H37Rv		0.97 µg/mL
O=C1OC(c2ccccc2)CC1Nc1ccccc1				MIC bound	H37Rv	BACTEC	>12.5 µg/mL
COCCN1CCN(C(=O)c2nc3cc(C(F)(F)F)c(C)c([N+](=O)[O-])c3s2)CC1	BTZ-resistant (C387S)			MIC80	H37Rv	resazurin / absorbance	>32 µg/mL
COC(=O)C1C2CCCCC1C(=O)O2			12.5 µg/mL	inhibition	H37Rv	BACTEC	17%
CC(C)[C@H](NC(=O)OCc1ccccc1)c1cnc(-c2ccc([N+](=O)[O-])cc2)[nH]1		21 d		MIC	My 331/88		16 µM
O=C(Nc1ncc([N+](=O)[O-])s1)c1ccc(F)cc1				MIC90	H37Rv		25 µg/mL
O=C(O)c1ccc(-n2c(-c3ccncc3)n[nH]c2=S)cc1O				MIC90	H37Rv	broth dilution	>12.5 µg/mL
CC1(C)S[C@@H]2[C@H](NC(=O)[C@H](N)c3ccc(O)cc3)C(=O)N2[C@H]1C(=O)O				MIC	H37Ra		>16 µg/mL
O=[N+]([O-])c1cc(C(F)(F)F)cc2nc(C3=NCCO3)sc12				MBC	H37Rv	resazurin / absorbance	1 µg/mL
COc1ccc(NC(=O)c2cc([N+](=O)[O-])cn2C)cc1				MIC90	H37Rv		>200 µg/mL
CCCCCCCCCCCCOC(=O)[C@H](Cc1c[nH]c2ccccc12)NC(=O)N[C@@H](CC1CCCCC1)C(=O)N[C@H](C(=O)NC[C@H]1C[C@@H](O)[C@H](n2ccc(=O)[nH]c2=O)O1)[C@H](C)N(C)C(=O)CN				MIC50	H37Rv	resazurin / fluorescence	0.2 µM
O=C(Nc1ccc(C(=O)O)c(O)c1)NC1CCCCC1				MIC90	H37Rv	broth dilution	<12.5 µg/mL
NC(=O)c1cnccn1			12.5 µg/mL	inhibition	H37Rv	BACTEC	0%
O=C(Cc1cccs1)N[C@@H]1C(=O)N2C(C(=O)[O-])=C(C[n+]3ccccc3)CS[C@H]12				MIC	Isolate 3		>16 µg/mL
CC(C)C[C@H](NC(=O)OCc1ccccc1)c1cnc(-c2ccccc2)[nH]1		14 d		MIC	My 331/88		125 µM
O=C(NNC(=O)c1ccc([N+](=O)[O-])cc1)c1ccc([N+](=O)[O-])cc1				MIC			>200 µg/mL
c1ccc(/C(=N/Nc2ccc3ccccc3n2)c2ccccn2)cc1				MIC	H37Rv		1.6 µg/mL
O=C(NNS(=O)(=O)c1ccc([N+](=O)[O-])cc1)c1ccccc1				MIC			200 µg/mL
CCCCCCCCCN1C(=O)CC(SCCN)C1=O				MIC	H37Rv		≤20 µg/mL
C[C@@H](O)[C@H]1C(=O)N2C(C(=O)O)=C(SCCN=CN)C[C@H]12				MIC	H37Rv		4 µg/mL
CCCNC(=O)COc1cc2c(O)c3c(O)c(C)c4c(c13)C(=O)[C@@](C)(O/C=C/[C@H](OC)[C@@H](C)[C@@H](OC(C)=O)[C@H](C)[C@H](O)[C@H](C)[C@@H](O)[C@@H](C)/C=C/C=C(/C)C(=O)N2)O4				MIC	H37Rv		0.18 µg/mL
O=C(Nc1ncc([N+](=O)[O-])s1)c1ccc2c(c1)OCO2				MIC90	H37Rv		25 µg/mL
CO[C@H]1/C=C/O[C@@]2(C)Oc3c(C)c(O)c4c(O)c(cc(OCC(=O)N5C(C)CCC5C)c4c3C2=O)NC(=O)/C(C)=C\C=C\[C@H](C)[C@H](O)[C@@H](C)[C@@H](O)[C@@H](C)[C@H](OC(C)=O)[C@@H]1C				MIC	H37Rv		0.37 µg/mL
NC(=S)N/N=C1\COC(C(F)(F)F)(C(F)(F)F)C1			12.5 µg/mL	inhibition	H37Rv	BACTEC	-15%
CCOC(=O)c1ccc(Cl)cc1S(=O)(=O)NC(=O)Nc1nccc(C)n1				MIC	H37Rv		10 µg/mL
CCCCCCCCCN1C(=O)C=C(C)C1=O				MIC	H37Ra		≤20 µg/mL
Cn1c(=O)nc2n(-c3cc(Cl)ccc3Cl)c3ccccc3nc-2c1=O				MIC bound	H37Rv	BACTEC	>12.5 µg/mL
CC(=O)NN				MIC			>200 µg/mL
CCOC(=O)c1ccc(NC(=O)CCl)cc1S(=O)(=O)NC(=O)Nc1nccc(C)n1				MIC	H37Rv		>80 µg/mL
Cc1cc(NC(=O)c2ccc(N)cc2)ccc1N=Nc1ccc2cc(S(=O)(=O)O)cc(S(=O)(=O)O)c2c1				MIC bound	H37Rv	BACTEC	>12.5 µg/mL
C[C@@H]([C@H](NC(=O)[C@H](CC1CCCCC1)NC(=O)N[C@@H](Cc1c[nH]c2ccccc12)C(=O)NCc1ccccc1)C(=O)NC[C@H]1C[C@@H](O)[C@H](n2ccc(=O)[nH]c2=O)O1)N(C)C(=O)CN				MIC99	H37Rv	resazurin / fluorescence	>0.5 µM
O=c1[nH]c(=O)c2cc3cn[nH]c3cc2[nH]1				MIC bound	H37Rv	BACTEC	>12.5 µg/mL
CCCCCCCCCCCC(=O)NN				MIC			>40 µg/mL
COC(=O)C(=Cc1cc(OC)c(OC)c(OC)c1-c1cc2c(cc1C1(C)OCCS1)OCO2)C(=O)OC				MIC bound	H37Rv	BACTEC	>12.5 µg/mL
CO[C@H]1/C=C/O[C@@]2(C)Oc3c(C)c(O)c4c(O)c(cc(OCC(=O)N(C)Cc5ccccc5)c4c3C2=O)NC(=O)/C(C)=C\C=C\[C@H](C)[C@H](O)[C@@H](C)[C@@H](O)[C@@H](C)[C@H](OC(C)=O)[C@@H]1C				MIC	H37Rv		0.37 µg/mL
Nc1c(C(=O)NCCc2ccccc2)c2nc3c(C(=O)NCCc4ccccc4)ccc(Br)c3oc-2c(Br)c1=O			12.5 µg/mL	inhibition	H37Rv	BACTEC	-33%
CCOC(=O)c1ccc(NC(=O)CCl)cc1S(=O)(=O)NC(=O)Nc1nccc(OC)n1				MIC	H37Rv		>80 µg/mL
NC(=O)C(=O)c1c(-c2ccccc2)c(-c2ccccc2)c2n1CCC2			6.25 µg/mL	inhibition	H37Rv	resazurin	8%
CC1COc2c(N3CCN(C)CC3)c(F)cc3c(=O)c(C(=O)O)cn1c23				MBC	001-013 (drug-resistant)		4 µg/mL
O=C1c2ccccc2C(=O)N1Nc1ccccc1				MIC			>200 µg/mL
CC(C)(C)C1=CC(=O)C(C#N)=C(C#N)C1=O			128 µg/mL	inhibition	H37Rv	BACTEC	100%
CCOC(=O)c1ccc(Cl)cc1S(=O)(=O)NC(=O)Nc1nccc(OC)n1				MIC	H37Rv		>80 µg/mL
CC(=O)C1(N=Nc2ccc(S(=O)(=O)Nc3onc(C)c3C)cc2)CCOC1=O				MIC bound	H37Rv	BACTEC	>12.5 µg/mL
Cc1c(N2C(=O)CC(=O)N(c3ccc(C(=O)O)c(O)c3)C2=S)c(=O)n(-c2ccccc2)n1C			12.5 µg/mL	inhibition	H37Rv	resazurin	88%
Cc1c(C)[n+](=O)c2ccc(/C=N/N3CCOC3=O)cc2n1[O-]				MIC	H37Rv	BACTEC	≥12.5 µg/mL
CCCCN(CCCC)C(=O)COc1cc2c(O)c3c(O)c(C)c4c(c13)C(=O)[C@@](C)(O/C=C/[C@H](OC)[C@@H](C)[C@@H](OC(C)=O)[C@H](C)[C@H](O)[C@H](C)[C@@H](O)[C@@H](C)/C=C/C=C(/C)C(=O)N2)O4				MIC	H37Rv		0.02 µg/mL
C[C@@H]([C@H](NC(=O)[C@H](Cc1ccc2ccccc2c1)NC(=O)N[C@@H](Cc1c[nH]c2ccccc12)C(=O)OCC(C)(C)C)C(=O)NC[C@H]1C[C@@H](O)[C@H](n2ccc(=O)[nH]c2=O)O1)N(C)C(=O)CN				MIC50	H37Rv	resazurin / fluorescence	0.011 µM
O=C([O-])c1cc(-c2ccc3c(c2)Nc2ccccc2S3)nc2ccc(F)cc12.[K+]				MIC bound	H37Rv	BACTEC	>12.5 µg/mL
CCCCCCC(O)C/C=C/CCCCCCCC(=O)NN				MIC			200 µg/mL

The first 10 rows once more:

{"compound": "O=C(O)c1ccc(-c2c3ccc(=O)cc-3oc3cc(O)ccc23)cc1", "measure": "MIC bound", "strain or isolate": "H37Rv", "method": "BACTEC", "value": ">12.5 µg/mL"}
{"compound": "COc1ccc(CCNC(=O)c2nc([N+](=O)[O-])cn2C)cc1", "measure": "MIC90", "strain or isolate": "H37Rv", "value": ">200 µg/mL"}
{"compound": "CC(=O)NNC(=O)c1ccccc1", "measure": "MIC", "value": ">200 µg/mL"}
{"compound": "CC(C)[C@H](NC(=O)OCc1ccccc1)c1cnc(-c2ccccc2)[nH]1", "setting": "14 d", "measure": "MIC", "strain or isolate": "My 331/88", "value": "16 µM"}
{"compound": "CCCCCCCCCN1C(=O)CC(C)(SCC(N)C(=O)O)C1=O", "measure": "MIC", "strain or isolate": "H37Ra", "value": "≤20 µg/mL"}
{"compound": "O=C(O)c1ccc(N2C(=O)C(C(=O)C(F)(F)F)C(=O)N(c3ccc(S(=O)(=O)Nc4ncccn4)cc3)C2=S)cc1O", "dose": "12.5 µg/mL", "measure": "inhibition", "strain or isolate": "H37Rv", "method": "resazurin", "value": "95%"}
{"compound": "CC(=O)NNc1nc(C)c(C(=O)NNC(=O)C(=O)Nc2ccccc2C#N)s1", "dose": "12.5 µg/mL", "measure": "inhibition", "strain or isolate": "H37Rv", "method": "BACTEC", "value": "19%"}
{"compound": "NC[C@H]1O[C@H](O[C@H]2[C@H](O)[C@@H](O[C@H]3O[C@H](CO)[C@@H](O)[C@H](N)[C@H]3O)[C@H](N)C[C@@H]2N)[C@H](O)[C@@H](O)[C@@H]1O", "measure": "MIC", "value": "20 µg/mL"}
{"compound": "O=C(NCc1ccccc1Cl)c1ccc([N+](=O)[O-])s1", "measure": "MIC90", "strain or isolate": "H37Rv", "value": "25 µg/mL"}
{"compound": "O=C(O)C1OC(Oc2ccc3oc4ccccc4c(=O)c3c2)C(O)C(O)C1O", "dose": "12.5 µg/mL", "measure": "inhibition", "strain or isolate": "H37Rv", "method": "BACTEC", "value": "-30%"}

Lines come from different laboratories, so protocols vary. A number after MIC or MFC names an inhibition level or a share of isolates. Inhibition is in % at the dose shown (toxicity tests: loss of growth or viability). MIC bound comes from a single tested concentration.